Values after ≈ are worked out from the molar mass of the structure shown.
Tests used:
Assay in all cases: agar serial dilution test, MIC
Conditions in all cases: 24 hours at 37°C
Proteus mirabilis L 93 = tested on: Proteus mirabilis L 93
[1] = tested on: Brucella melitensis A 488
Shigella equirulis T 3 = tested on: Shigella equirulis T 3
[2] = tested on: Streptococcus faecalis L 80; format: cell-based
[3] = tested on: Staphylococcus aureus A 2001; format: cell-based
[4] = tested on: Pasteurella multocida A 723; format: cell-based
Proteus rettgeri A 821 = format: cell-based
[5] = tested on: Pseudomonas aeruginosa Wyeth A 1058; format: cell-based
[6] = tested on: Diplococcus pneumoniae L 54; format: cell-based
[7] = tested on: Staphylococcus aureus A 355'; format: cell-based
[8] = tested on: Staphylococcus aureus A 321; format: cell-based
Proteus mirabilis A 1200 = format: cell-based
[9] = tested on: Klebsiella pneumoniae A 809; format: cell-based
[10] = tested on: Streptococcus haemolyticus A 266; format: cell-based
[11] = tested on: Salmonella typhimurium R 127; format: cell-based
[12] = tested on: Pseudomonas aeruginosa H 10; format: cell-based
Escherichia coli U 20 = format: cell-based
[13] = tested on: Pseudomonas aeruginosa 2396; format: cell-based
Proteus mirabilis H 3 = format: cell-based
Proteus morganii 2241 = format: cell-based
[14] = tested on: Salmonella typhimurium R172; format: cell-based
[15] = tested on: Staphylococcus aureus A 2000; format: cell-based
Salmonella dublin P 43 = format: cell-based

SMILES | MIC (Proteus mirabilis L 93) | MIC [1] | MIC (Shigella equirulis T 3) | MIC [2] | MIC [3] | MIC [4] | MIC (Proteus rettgeri A 821) | MIC [5] | MIC [6] | MIC [7] | MIC [8] | MIC [9] | MIC [10] | MIC [11] | MIC [12] | MIC (Escherichia coli U 20) | MIC [13] | MIC (Proteus morganii 2241) | MIC [15] | MIC (Salmonella dublin P 43) | further results
CN(C)P(=O)(NC(=O)N[C@@H](C(=O)N[C@@H]1C(=O)N2[C@@H]1SC(C)(C)[C@@H]2C(=O)O)c1ccccc1)N(C)C | 3 µg/mL (≈ 5.7 µM) | 0.12 µg/mL (≈ 0.228 µM) | 3 µg/mL (≈ 5.7 µM) | 6 µg/mL (≈ 11.4 µM) | 6 µg/mL (≈ 11.4 µM) | 0.5 µg/mL (≈ 0.95 µM) | 3 µg/mL (≈ 5.7 µM) | 50 µg/mL (≈ 95 µM) | 1.5 µg/mL (≈ 2.85 µM) | 25 µg/mL (≈ 47.5 µM) | 1 µg/mL (≈ 1.9 µM) | 100 µg/mL (≈ 190 µM) | 0.06 µg/mL (≈ 0.114 µM) | 50 µg/mL (≈ 95 µM) | > 100 µg/mL | 50 µg/mL (≈ 95 µM) | 50 µg/mL (≈ 95 µM) | 100 µg/mL (≈ 190 µM) |  |  | MIC (Proteus mirabilis A 1200): 25 µg/mL (≈ 47.5 µM); MIC (Proteus mirabilis H 3): 25 µg/mL (≈ 47.5 µM)
CC1=C(C(=O)O)N2C(=O)[C@@H](NC(=O)[C@H](NC(=O)NP(=O)(Oc3ccccc3)Oc3ccccc3)c3ccccc3)[C@H]2SC1 | > 100 µg/mL | 25 µg/mL (≈ 40.2 µM) |  | > 100 µg/mL | 1.5 µg/mL (≈ 2.41 µM) | 25 µg/mL (≈ 40.2 µM) | 50 µg/mL (≈ 80.3 µM) | > 100 µg/mL |  | 3 µg/mL (≈ 4.82 µM) | 1.5 µg/mL (≈ 2.41 µM) | 100 µg/mL (≈ 161 µM) | 1 µg/mL (≈ 1.61 µM) |  | > 100 µg/mL | > 100 µg/mL | > 100 µg/mL | > 100 µg/mL | 1.5 µg/mL (≈ 2.41 µM) | 100 µg/mL (≈ 161 µM) | MIC [14]: > 100 µg/mL; MIC (Proteus mirabilis A 1200): > 100 µg/mL; MIC (Proteus mirabilis H 3): > 100 µg/mL
CCOP(=O)(NC(=O)Nc1ccccc1)N[C@@H](C(=O)N[C@@H]1C(=O)N2[C@@H]1SC(C)(C)[C@@H]2C(=O)O)c1ccccc1 (some centres unmarked) | 6 µg/mL (≈ 10.4 µM) | 3 µg/mL (≈ 5.21 µM) |  |  | 3 µg/mL (≈ 5.21 µM) | 1.5 µg/mL (≈ 2.61 µM) | 1.5 µg/mL (≈ 2.61 µM) | 50 µg/mL (≈ 86.9 µM) | 0.5 µg/mL (≈ 0.869 µM) | 6 µg/mL (≈ 10.4 µM) | 1.5 µg/mL (≈ 2.61 µM) | > 100 µg/mL | 0.12 µg/mL (≈ 0.208 µM) |  | > 100 µg/mL | > 100 µg/mL | 50 µg/mL (≈ 86.9 µM) | 50 µg/mL (≈ 86.9 µM) | 6 µg/mL (≈ 10.4 µM) | 50 µg/mL (≈ 86.9 µM) | MIC [14]: > 100 µg/mL; MIC (Proteus mirabilis A 1200): 25 µg/mL (≈ 43.4 µM); MIC (Proteus mirabilis H 3): 50 µg/mL (≈ 86.9 µM)
CC1(C)S[C@@H]2[C@H](NC(=O)[C@H](NC(=O)NP(=O)(Oc3ccccc3)Oc3ccccc3)c3ccccc3)C(=O)N2[C@H]1C(=O)O | 3 µg/mL (≈ 4.8 µM) | 0.03 µg/mL (≈ 0.048 µM) | 0.12 µg/mL (≈ 0.192 µM) | 0.25 µg/mL (≈ 0.4 µM) | 0.25 µg/mL (≈ 0.4 µM) | 3 µg/mL (≈ 4.8 µM) | 6 µg/mL (≈ 9.61 µM) | 50 µg/mL (≈ 80 µM) | 0.06 µg/mL (≈ 0.0961 µM) | 6 µg/mL (≈ 9.61 µM) | 0.06 µg/mL (≈ 0.0961 µM) | 25 µg/mL (≈ 40 µM) | 0.05 µg/mL (≈ 0.08 µM) | 50 µg/mL (≈ 80 µM) | > 100 µg/mL | 50 µg/mL (≈ 80 µM) | 50 µg/mL (≈ 80 µM) | 50 µg/mL (≈ 80 µM) | 3 µg/mL (≈ 4.8 µM) | 25 µg/mL (≈ 40 µM) | 
CC1(C)S[C@@H]2[C@H](NC(=O)[C@H](NC(=S)NP(=S)(Oc3ccccc3)Oc3ccccc3)c3ccccc3)C(=O)N2[C@H]1C(=O)O | 3 µg/mL (≈ 4.57 µM) | 1.5 µg/mL (≈ 2.28 µM) |  | 25 µg/mL (≈ 38.1 µM) | 3 µg/mL (≈ 4.57 µM) | 1.5 µg/mL (≈ 2.28 µM) | 25 µg/mL (≈ 38.1 µM) | > 100 µg/mL |  |  | 1.5 µg/mL (≈ 2.28 µM) | 100 µg/mL (≈ 152 µM) | 0.3 µg/mL (≈ 0.457 µM) | 100 µg/mL (≈ 152 µM) | > 100 µg/mL | 100 µg/mL (≈ 152 µM) | > 100 µg/mL | > 100 µg/mL |  | 100 µg/mL (≈ 152 µM) | MIC (Proteus mirabilis A 1200): 25 µg/mL (≈ 38.1 µM); MIC (Proteus mirabilis H 3): 50 µg/mL (≈ 76.1 µM)
CC1(C)S[C@@H]2[C@H](NC(=O)[C@H](NC(=S)NP(=O)(Oc3ccccc3)Oc3ccccc3)c3ccccc3)C(=O)N2[C@H]1C(=O)O | 3 µg/mL (≈ 4.68 µM) | 0.25 µg/mL (≈ 0.39 µM) |  | 50 µg/mL (≈ 78 µM) | 3 µg/mL (≈ 4.68 µM) |  | 25 µg/mL (≈ 39 µM) | 100 µg/mL (≈ 156 µM) | 0.5 µg/mL (≈ 0.78 µM) | 25 µg/mL (≈ 39 µM) | 0.25 µg/mL (≈ 0.39 µM) | 100 µg/mL (≈ 156 µM) | 0.12 µg/mL (≈ 0.187 µM) | 100 µg/mL (≈ 156 µM) | > 100 µg/mL | 100 µg/mL (≈ 156 µM) | 100 µg/mL (≈ 156 µM) | > 100 µg/mL | 25 µg/mL (≈ 39 µM) |  | MIC (Proteus mirabilis H 3): 25 µg/mL (≈ 39 µM)
CN(C)P(=O)(NC(=S)N[C@@H](C(=O)N[C@@H]1C(=O)N2[C@@H]1SC(C)(C)[C@@H]2C(=O)O)c1ccccc1)N(C)C | 1.5 µg/mL (≈ 2.76 µM) | 1.0 µg/mL (≈ 1.84 µM) | 3 µg/mL (≈ 5.53 µM) |  | 3 µg/mL (≈ 5.53 µM) | 1.5 µg/mL (≈ 2.76 µM) | 1.5 µg/mL (≈ 2.76 µM) | 25 µg/mL (≈ 46.1 µM) | 0.5 µg/mL (≈ 0.921 µM) |  | 1.5 µg/mL (≈ 2.76 µM) |  | 0.12 µg/mL (≈ 0.221 µM) | 50 µg/mL (≈ 92.1 µM) | > 100 µg/mL | 50 µg/mL (≈ 92.1 µM) | 25 µg/mL (≈ 46.1 µM) | 100 µg/mL (≈ 184 µM) |  | 25 µg/mL (≈ 46.1 µM) | MIC (Proteus mirabilis A 1200): 6 µg/mL (≈ 11.1 µM)
CC1(C)S[C@@H]2[C@H](NC(=O)[C@H](NC(=O)NP(=S)(Oc3ccccc3)Oc3ccccc3)c3ccccc3)C(=O)N2[C@H]1C(=O)O | 6 µg/mL (≈ 9.37 µM) |  | 3 µg/mL (≈ 4.68 µM) | 1.5 µg/mL (≈ 2.34 µM) | 1 µg/mL (≈ 1.56 µM) | 3 µg/mL (≈ 4.68 µM) |  | 25 µg/mL (≈ 39 µM) | 0.25 µg/mL (≈ 0.39 µM) | 25 µg/mL (≈ 39 µM) | 0.25 µg/mL (≈ 0.39 µM) |  |  | 50 µg/mL (≈ 78 µM) | 100 µg/mL (≈ 156 µM) | 25 µg/mL (≈ 39 µM) | 25 µg/mL (≈ 39 µM) | 25 µg/mL (≈ 39 µM) | 3 µg/mL (≈ 4.68 µM) |  | 
CC1(C)S[C@@H]2[C@H](NC(=O)[C@H](NC(=O)NP(=O)(c3ccccc3)c3ccccc3)c3ccccc3)C(=O)N2[C@H]1C(=O)O | 6 µg/mL (≈ 10.1 µM) | 0.8 µg/mL (≈ 1.35 µM) | 3 µg/mL (≈ 5.06 µM) | 3 µg/mL (≈ 5.06 µM) | 1.5 µg/mL (≈ 2.53 µM) | 0.8 µg/mL (≈ 1.35 µM) | 3 µg/mL (≈ 5.06 µM) | 50 µg/mL (≈ 84.4 µM) | > 100 µg/mL | 6 µg/mL (≈ 10.1 µM) | 0.8 µg/mL (≈ 1.35 µM) | 50 µg/mL (≈ 84.4 µM) | 0.03 µg/mL (≈ 0.0506 µM) | 25 µg/mL (≈ 42.2 µM) | 100 µg/mL (≈ 169 µM) |  | 50 µg/mL (≈ 84.4 µM) | > 100 µg/mL | 3 µg/mL (≈ 5.06 µM) | 6 µg/mL (≈ 10.1 µM) | 
